Compound potency records, mixed from different reports. Data source: NIAID ChemDB in PubChem.

Common to all: whole-cell or culture tests; agent: Semliki Forest virus; endpoint: EC50

ECn: concentration that inhibits the pathogen or its effect by n%. Blank or dashed fields: not listed here. Rows are shuffled and stem from different studies.

| SMILES | method | cells | result |
|---|---|---|---|
| Cc1cn([C@@H]2CC[C@H](CO)C2)c(=O)[nH]c1=O | cytopathic effect | VERO | >400 µg/mL |
| C#Cc1c(C(N)=O)ncn1[C@@H]1O[C@H](CO)[C@@H](O)[C@H]1O | cytopathic effect | VERO | 2 µg/mL |
| Nc1nccc2c1ncn2[C@@H]1C[C@H](CO)[C@@H](O)[C@H]1O | cytopathic effect | VERO | 8 µg/mL |
| NC(=O)c1ncn([C@@H]2O[C@H](CO)[C@@H](O)[C@H]2O)c1C#CCCO | cytopathic effect | VERO | 20 µg/mL |
| Cc1cn([C@H]2C[C@@H]3OC[C@H]2[C@@H]3CO)c(=O)[nH]c1=O | cytopathic effect | VERO | >400 µg/mL |
| Nc1cc(OC[C@H](CO)OCP(=O)(O)O)nc(N)n1 | cytopathic effect |  | >15 µM |
| Nc1ncnc2c1ncn2C[C@H](O)CO | cytopathic effect | VERO | >400 µg/mL |
| NC(=O)c1ncn([C@@H]2O[C@H](CO)[C@@H](O)[C@H]2O)c1C#CCO | cytopathic effect | VERO | 10 µg/mL |
| Nc1nc(Cl)c2ncn(C[C@H]3CC[C@@H](CO)C3)c2n1 | cytopathic effect | VERO | >40 µg/mL |
| Nc1ncnc2c1ncn2[C@@H]1C=C(CO)[C@@H](O)[C@H]1O | cytopathic effect | VERO | >10 µg/mL |
| Nc1nccc2c1ncn2[C@@H]1C[C@H](CO)[C@@H](O)[C@H]1O | cytopathic effect | VERO | >400 µg/mL |
| NC(=O)c1ncn([C@@H]2O[C@H](CO)[C@@H](O)[C@H]2O)c1C#Cc1ccccc1 | cytopathic effect | VERO | >400 µg/mL |
| NC(=O)c1ncn([C@@H]2O[C@H](CO)[C@@H](O)[C@H]2O)n1 | plaque count | VERO | >250 µM |
| Nc1nc(N)c2ncn(C[C@H]3CC[C@@H](CO)C3)c2n1 | cytopathic effect | VERO | >200 µg/mL |
| Nc1nccc2c1ncn2[C@@H]1C=C[C@@H](O)[C@H]1O | cytopathic effect | VERO | >200 µg/mL |
| Cc1cn([C@H]2C[C@H](O)[C@@H](CO)[C@@H]2C)c(=O)[nH]c1=O | cytopathic effect | VERO | >400 µg/mL |
| Nc1nc2c(ncn2C[C@H]2CC[C@@H](CO)C2)c(=O)[nH]1 | cytopathic effect | VERO | >200 µg/mL |
| Nc1ncnc2c1ncn2CCOCP(=O)(O)O | cytopathic effect |  | >185 µM |
| Nc1nccc2c1ncn2[C@@H]1C[C@H](CO)[C@@H](O)[C@H]1O | cytopathic effect | VERO | >400 µg/mL |
| Nc1ncnc2c1ncn2C[C@H](O)CO | cytopathic effect | VERO | >400 µg/mL |
| Nc1nccc2c1ncn2[C@@H]1C[C@H](CO)[C@@H](O)[C@H]1O | cytopathic effect | VERO | >100 µg/mL |
| C[C@H](Cn1cnc2c(N)ncnc21)OCP(=O)(O)O | cytopathic effect |  | >525 µM |
| NC(=O)c1ccnc([C@@H]2O[C@H](CO)[C@@H](O)[C@H]2O)c1 | cytopathic effect | VERO | >400 µg/mL |
| Cc1cn([C@H]2C[C@@H](CO)[C@H](O)C2)c(=O)[nH]c1=O | cytopathic effect | VERO | >400 µg/mL |

The first 3 rows once more:

Cc1cn([C@@H]2CC[C@H](CO)C2)c(=O)[nH]c1=O ; method: cytopathic effect ; cells: VERO ; result: >400 µg/mL
C#Cc1c(C(N)=O)ncn1[C@@H]1O[C@H](CO)[C@@H](O)[C@H]1O ; method: cytopathic effect ; cells: VERO ; result: 2 µg/mL
Nc1nccc2c1ncn2[C@@H]1C[C@H](CO)[C@@H](O)[C@H]1O ; method: cytopathic effect ; cells: VERO ; result: 8 µg/mL